Data on one molecule can be found in publication PMC4257840 (Journal of Medicinal Chemistry, 2014).

The subject of this experiment is nonsensitized rats challenged with a natural mixture of HDM allergens.

SMILES strings stand for the structures. Marks after values point to notes of the source that are not given here.

For the molecule `CC(C)[C@H](NC(=O)[C@H](C)NC(=O)[C@H](Cc1ccccc1)NC(=O)c1ccccc1)C(=O)C(=O)NCC(=O)N1CC[N+](C)(C)CC1.O=C[O-]` [Compound 52, 4-(2-{(S)-3-[(S)-2-((S)-2-Benzoylamino-3-phenyl-propionylamino)-propionylamino]-4-methyl-2-oxo-pentanoylamino}-acetyl)-1,1-dimethyl-piperazin-1-ium Formate], the “reduction in innate BAL eosinophil response” value (intratracheal aerosol 6 h prior to challenge, ∼40 μg/kg, drug:target 50:1, mean ± SE, 10 animals) is reported as 65.6 ± 7.1 ^d %. For the same molecule, for the setting “single intratracheal dose before HDM allergen challenge, BAL eosinophils”, the “endurance of action (protection from a single dose)” value is reported as above 6 h.
